Data as given in patent US20220000976A1 (priority 2018, published 2022).
Structures can show the parent of a compound that is named as a salt.

System: ROR-γt+ Treg cells
Conditions: sham versus I3S-treated mice

O=S(=O)(O)Oc1c[nH]c2ccccc12 [I3S, Indoxyl sulfate]
Percentage of total gut Treg cells (CD4+Foxp3+): did not display a statistically significant change
